In-gel DMS probing of monomeric and dimeric HIV-1 RNA

Sequence of the HIV-1 NL4-3 5' RNA, positions 1 to 437, as numbered in the source:
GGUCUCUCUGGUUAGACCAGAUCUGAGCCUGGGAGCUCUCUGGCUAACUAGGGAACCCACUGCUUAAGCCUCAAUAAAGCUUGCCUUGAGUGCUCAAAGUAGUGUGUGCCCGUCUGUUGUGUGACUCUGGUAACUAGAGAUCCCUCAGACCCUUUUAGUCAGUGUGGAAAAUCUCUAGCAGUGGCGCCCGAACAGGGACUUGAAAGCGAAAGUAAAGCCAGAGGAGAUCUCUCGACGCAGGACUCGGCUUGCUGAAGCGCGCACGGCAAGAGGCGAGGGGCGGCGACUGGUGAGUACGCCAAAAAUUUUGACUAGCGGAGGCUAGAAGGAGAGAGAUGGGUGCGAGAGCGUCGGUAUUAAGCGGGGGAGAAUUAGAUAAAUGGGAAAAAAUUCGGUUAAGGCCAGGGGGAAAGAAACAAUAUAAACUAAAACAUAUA

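Randomly mutated transcripts starting with one, two or three G (1G, 2G, 3G), capped or uncapped, were folded for 30 min at 37 °C. Monomer and dimer bands were cut from native gels after folding in high salt (300 mM KCl, 5 mM MgCl2) or low salt (40 mM KCl, 0.1 mM MgCl2). Gel slices were treated with 170 mM dimethyl sulfate for 15 min at 37 °C and read by mutational profiling against an ethanol control.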

Scale: normalised reactivity, A and C only; low values point to paired or protected bases, higher values to unpaired ones.
One numbering serves 1G, 2G and 3G.
A position is written with its base.

With A374 the assay gave 1G uncapped low-salt monomer 0.43; 2G capped high-salt dimer 0.50.
With A376 the assay gave 1G uncapped low-salt monomer 0.71; 2G capped high-salt dimer 0.74; 2G uncapped low-salt monomer 0.72.
With A378 the assay gave 1G uncapped low-salt monomer 0.22; 2G capped high-salt dimer 0.20; 2G uncapped low-salt monomer 0.21.
With A379 the assay gave 1G uncapped low-salt monomer 0.56; 2G capped high-salt dimer 0.59; 2G uncapped low-salt monomer 0.56.
With A380 the assay gave 1G uncapped low-salt monomer 0.83; 2G capped high-salt dimer 0.79; 2G uncapped low-salt monomer 0.80.
With A385 the assay gave 1G uncapped low-salt monomer 0.51; 2G capped high-salt dimer 0.52; 2G uncapped low-salt monomer 0.52.
With A386 the assay gave 1G uncapped low-salt monomer 1.26; 2G capped high-salt dimer 1.26; 2G uncapped low-salt monomer 1.28.
With A387 the assay gave 1G uncapped low-salt monomer 0.23; 2G capped high-salt dimer 0.23; 2G uncapped low-salt monomer 0.22.
With A388 the assay gave 1G uncapped low-salt monomer 0.09; 2G capped high-salt dimer 0.08; 2G uncapped low-salt monomer 0.08.
With A389 the assay gave 1G uncapped low-salt monomer 0.17; 2G capped high-salt dimer 0.17; 2G uncapped low-salt monomer 0.17.
With A390 the assay gave 1G uncapped low-salt monomer 0.84; 2G capped high-salt dimer 0.88; 2G uncapped low-salt monomer 0.88.
With C393 the assay gave 1G uncapped low-salt monomer 0.61; 2G capped high-salt dimer 0.61; 2G uncapped low-salt monomer 0.60.
With A398 the assay gave 1G uncapped low-salt monomer 0.29; 2G capped high-salt dimer 0.20; 2G uncapped low-salt monomer 0.22.
With A399 the assay gave 1G uncapped low-salt monomer 0.44; 2G capped high-salt dimer 0.26; 2G uncapped low-salt monomer 0.28.
With C402 the assay gave 1G uncapped low-salt monomer 0.05; 2G capped high-salt dimer 0.04; 2G uncapped low-salt monomer 0.04.
With C403 the assay gave 1G uncapped low-salt monomer 0.05; 2G capped high-salt dimer 0.03; 2G uncapped low-salt monomer 0.03.
With A404 the assay gave 1G uncapped low-salt monomer 0.22; 2G capped high-salt dimer 0.27; 2G uncapped low-salt monomer 0.24.
With A410 the assay gave 1G uncapped low-salt monomer 0.32; 2G capped high-salt dimer 0.41; 2G uncapped low-salt monomer 0.40.
With A411 the assay gave 1G uncapped low-salt monomer 0.69; 2G capped high-salt dimer 0.82; 2G uncapped low-salt monomer 0.80.
With A412 the assay gave 1G uncapped low-salt monomer 0.47; 2G capped high-salt dimer 0.49; 2G uncapped low-salt monomer 0.46.
With A414 the assay gave 1G uncapped low-salt monomer 0.44; 2G capped high-salt dimer 0.49; 2G uncapped low-salt monomer 0.44.
With A415 the assay gave 1G uncapped low-salt monomer 0.23; 2G capped high-salt dimer 0.25; 2G uncapped low-salt monomer 0.21.
With A416 the assay gave 1G uncapped low-salt monomer 0.47; 2G capped high-salt dimer 0.44; 2G uncapped low-salt monomer 0.42.
With C417 the assay gave 1G uncapped low-salt monomer 0.87; 2G capped high-salt dimer 0.80; 2G uncapped low-salt monomer 0.78.
With A418 the assay gave 1G uncapped low-salt monomer 0.61; 2G capped high-salt dimer 0.63; 2G uncapped low-salt monomer 0.61.
With A419 the assay gave 1G uncapped low-salt monomer 0.41; 2G capped high-salt dimer 0.47; 2G uncapped low-salt monomer 0.44.
With A421 the assay gave 1G uncapped low-salt monomer 0.34; 2G capped high-salt dimer 0.36; 2G uncapped low-salt monomer 0.34.
With A423 the assay gave 1G uncapped low-salt monomer 0.38; 2G capped high-salt dimer 0.42; 2G uncapped low-salt monomer 0.40.
With A424 the assay gave 1G uncapped low-salt monomer 0.32; 2G capped high-salt dimer 0.36; 2G uncapped low-salt monomer 0.33.
With A425 the assay gave 1G uncapped low-salt monomer 0.49; 2G capped high-salt dimer 0.50; 2G uncapped low-salt monomer 0.49.
With C426 the assay gave 1G uncapped low-salt monomer 0.74; 2G capped high-salt dimer 0.73; 2G uncapped low-salt monomer 0.72.
With A428 the assay gave 1G uncapped low-salt monomer 0.10; 2G capped high-salt dimer 0.09; 2G uncapped low-salt monomer 0.10.
With A429 the assay gave 1G uncapped low-salt monomer 0.63; 2G capped high-salt dimer 0.70; 2G uncapped low-salt monomer 0.67.
With A430 the assay gave 1G uncapped low-salt monomer 0.51; 2G capped high-salt dimer 0.54; 2G uncapped low-salt monomer 0.53.
With A431 the assay gave 1G uncapped low-salt monomer 0.57; 2G capped high-salt dimer 0.59; 2G uncapped low-salt monomer 0.59.
With C432 the assay gave 1G uncapped low-salt monomer 0.85; 2G capped high-salt dimer 0.87; 2G uncapped low-salt monomer 0.85.
With A433 the assay gave 1G uncapped low-salt monomer 0.69; 2G capped high-salt dimer 0.71; 2G uncapped low-salt monomer 0.69.
With A435 the assay gave 1G uncapped low-salt monomer 0.48; 2G capped high-salt dimer 0.48; 2G uncapped low-salt monomer 0.48.
With A437 the assay gave 1G uncapped low-salt monomer 0.05; 2G capped high-salt dimer 0.03; 2G uncapped low-salt monomer 0.03.

The last 4 entries again:

* C432 = 1G uncapped low-salt monomer 0.85; 2G capped high-salt dimer 0.87; 2G uncapped low-salt monomer 0.85
* A433 = 1G uncapped low-salt monomer 0.69; 2G capped high-salt dimer 0.71; 2G uncapped low-salt monomer 0.69
* A435 = 1G uncapped low-salt monomer 0.48; 2G capped high-salt dimer 0.48; 2G uncapped low-salt monomer 0.48
* A437 = 1G uncapped low-salt monomer 0.05; 2G capped high-salt dimer 0.03; 2G uncapped low-salt monomer 0.03

Data from the supplement of Ye et al. 2022, doi:10.1038/s41594-022-00746-2.